According to article PMC10694654 (The Journal of Biological Chemistry, 2023):
Negatives hold for the conditions tested.

Sequences of proteins named here, by UniProt entry; tags and fusion partners are left off. Residues count along the entry.
UniProt P44009, 23-236: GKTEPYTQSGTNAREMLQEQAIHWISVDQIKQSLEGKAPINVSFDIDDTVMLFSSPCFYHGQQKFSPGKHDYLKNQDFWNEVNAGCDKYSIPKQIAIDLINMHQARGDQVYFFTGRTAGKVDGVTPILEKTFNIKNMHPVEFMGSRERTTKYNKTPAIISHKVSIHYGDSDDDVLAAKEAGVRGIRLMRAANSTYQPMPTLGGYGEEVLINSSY

Target: His6-AphAHi (Haemophilus influenzae Rd KW20) (UniProt P44009)
Assay: EMSA
Settings: up to 50 uM protein, DNA 5 and 20 nM, EMSA: 20 mM Tris-HCl pH 7.5, 100 mM KCl, 2 mM MgCl2, 1 mM beta-mercaptoethanol, 50 ug/ml BSA, 0.1 mg/ml salmon sperm DNA, 20 min at 37 C, 5% gel, recombinant protein, protein details: N-terminal His6, label: Cy5 at 5' ends, probe letters rebuilt from the primers and the genome

“CGCCAATCTTTCGCTAATTCCACCGCACTTTTTAGCAAATGCCCTTGATGCATTTCAAGTTTACGTTCAAATAATTCAAAAAGTGTAAATGCATCTGCCGTTCCACCCGCAAAACCAGCAAGCACTTTGCCATTATATAAACGGCGTACTTTACGAGCATTACCTTTCATTACG (double strand) [200-bp uptake sequence dsDNA]”: no binding (with cAMP); no binding (without cAMP).
